Pooled drug test results. Numbers come from NIAID ChemDB, via PubChem.

All rows: tests in culture; organism: Cryptosporidium parvum; measure: EC50

An empty or dashed field is not shown. Conditions beyond the fields shown may differ between rows. ECn is the concentration giving n% inhibition of infection, replication or growth.

compound,strain or isolate,cell line,method,value
CC(C)[C@H](NC(=O)[C@H](CCCN=C(N)N)NC(=O)N[C@@H](Cc1ccccc1)C(=O)O)C(=O)N[C@H](C=O)CCCN=C(N)N,-,-,cell count / microscopy,<100 µg/mL
CCCN(CCC)c1c([N+](=O)[O-])cc(C(=O)O)cc1[N+](=O)[O-],-,MDCK cells,ELISA / luminescence,5.8 µM
O=C(C[C@H]1NCCC[C@@H]1O)Cn1cnc2cc(Br)c(Cl)cc2c1=O,Calf isolate,L929,-,<0.032 µg/mL
Cc1cc(-n2c(=O)[nH]c(=O)n(C)c2=O)ccc1Oc1ccc(SC(F)(F)F)cc1,-,HCT-8,-,>1 µM
CCCN(CCC)c1c([N+](=O)[O-])cc(C(F)(F)F)cc1[N+](=O)[O-],-,-,-,1.14 µM
O=[N+]([O-])c1cc(C(F)(F)F)cc([N+](=O)[O-])c1N(CCO)CCO,-,MDCK cells,ELISA / luminescence,11.3 µM
O=S(=O)(F)Cc1ccccc1,-,-,-,>2000 µM
CCC(CC)Nc1c([N+](=O)[O-])cc(C(F)(F)F)cc1[N+](=O)[O-],-,MDCK cells,ELISA / luminescence,0.67 µM
NC(=O)c1nc[nH]c1C(N)=O,Human isolate,L929,-,>4 µg/mL
CCCC(CCCl)c1c([N+](=O)[O-])cc(C(F)(F)F)cc1[N+](=O)[O-],-,-,-,1.81 µM
Cc1c(N)nc([C@H](CC(N)=O)NC[C@H](N)C(N)=O)nc1C(=O)N[C@H](C(=O)N[C@H](C)[C@@H](O)[C@H](C)C(=O)N[C@H](C(=O)NCCc1nc(-c2nc(C(=O)NCCC[S+](C)C)cs2)cs1)[C@@H](C)O)C(O[C@@H]1O[C@@H](CO)[C@@H](O)[C@H](O)[C@@H]1O[C@H]1O[C@H](CO)[C@@H](O)[C@H](OC(N)=O)[C@@H]1O)c1cnc[nH]1,-,HCT-8,-,>1 µM
CC1(C)N=C(N)N=C(N)N1c1ccc(Cl)cc1,Calf isolate,L929,-,>20 µg/mL
COc1cc([C@@H]2c3cc4c(cc3[C@@H](O[C@@H]3O[C@@H]5CO[C@@H](c6cccs6)O[C@H]5[C@H](O)[C@H]3O)[C@H]3COC(=O)[C@H]23)OCO4)cc(OC)c1O,-,HCT-8,-,>1 µM
O=C(O)c1cc([N+](=O)[O-])c(N2CCOCC2)c([N+](=O)[O-])c1,-,MDCK cells,ELISA / luminescence,>10 µM
N#CC(c1ccc(Cl)cc1)c1c(Cl)cc(-n2ncc(=O)[nH]c2=O)cc1Cl,Calf isolate,L929,-,>20 µg/mL
CCCN(CCC)c1c([N+](=O)[O-])cc(C(F)(F)F)cc1[N+](=O)[O-],-,HCT-8,-,<1 µM

Repeating the first 2 entries:

compound	strain or isolate	cell line	method	value
CC(C)[C@H](NC(=O)[C@H](CCCN=C(N)N)NC(=O)N[C@@H](Cc1ccccc1)C(=O)O)C(=O)N[C@H](C=O)CCCN=C(N)N	-	-	cell count / microscopy	<100 µg/mL
CCCN(CCC)c1c([N+](=O)[O-])cc(C(=O)O)cc1[N+](=O)[O-]	-	MDCK cells	ELISA / luminescence	5.8 µM